According to patent US20230140293A1:

Key:
[1] = target: HIV-1 clade C strain 426c Env on Env-pseudotyped virus produced in 293s/GnTI-/- cells (Man5-enrichment) (HIV-1); assay: cell-based or functional assay
[2] = target: HIV-1 clade C strain 426c Env on Env-pseudotyped virus produced in 293T cells (HIV-1); assay: cell-based or functional assay

sCD4 (from UniProt P01730 26-396) (receptor)
ID50/IC50 in TZM-bl [1]: > 25 µg/mL | ID50/IC50 in TZM-bl [2]: > 25 µg/mL
